Measurements as given in publication PMC7963221.

Molecular target: SARS-CoV-2 RBD (WT) displayed on the surface of yeast (SARS-CoV-2) (UniProt P0DTC2)
Experiment: FACS

CB6/LY-CoV16
Kd: 0.66 nM
